Compound potency records, mixed from different reports. Data source: NIAID ChemDB in PubChem.

Common to all: tests in culture; organism: HIV-1; read-out: EC50

An empty or dashed field is not shown. Lines come from different laboratories, so protocols vary. Two numbers with a dash give a range or band. ECn is the concentration giving n% inhibition of infection, replication or growth.

SMILES | strain or isolate | cells | read by | changes | result
O=C(COc1ccc(Cl)cc1C(=O)c1nccs1)Nc1ccc2[nH]ncc2c1 | IIIB | MT-4 | cytopathic effect / propidium iodide | - | 0.011–0.1 µM
Cc1ncc(-c2ccc(N(C)CCOc3ccc(F)cc3F)cn2)c(N2CCC(C)(C)CC2)c1[C@H](OC(C)(C)C)C(=O)O | NL4-3 | MT-2 | luminescence | - | 0.0013 µM
CC(C)C1=C2[C@H]3CC[C@@H]4[C@@]5(C)CC[C@H](OC(=O)[C@H]6C[C@@H](C(=O)O)C6(C)C)C(C)(C)[C@@H]5CC[C@@]4(C)[C@]3(C)CC[C@@]2(CC(=O)NCc2ccc(N3CCS(=O)(=O)CC3)nc2)CC1=O | 92HT599 | MT-2 | p24 / ELISA | - | <1 µM
Cc1nc2ccccc2c(-c2cc(F)c3c(c2C)CCCO3)c1[C@H](OC(C)(C)C)C(=O)O | NL4-3 | MT-4 | luminescence | G140S/Q148H/N155H | 0.025 µM
CC(C)C1=C2[C@H]3CC[C@@H]4[C@@]5(C)CC[C@H](OC(=O)[C@H]6C[C@@H](C(=O)O)C6(C)C)C(C)(C)[C@@H]5CC[C@@]4(C)[C@]3(C)CC[C@@]2(CC(=O)NCC(C)(C)NC(=O)c2cncnc2)CC1=O | 92HT599 | MT-2 | p24 / ELISA | - | <1 µM
Cc1cc2[nH]cnc2cc1NC(=O)COc1ccc(Cl)cc1C(=O)c1cc(F)cc(C(F)(F)F)c1 | HXB2 | HeLa + HELA CD4+ | β-galactosidase | RT-V106A | 0.011–0.1 µM
Cc1ccc(OCCOc2ccc(-c3cnc(C)c([C@H](OC(C)(C)C)C(=O)O)c3N3CCC(C)(C)CC3)cn2)cc1F | NL4-3 | MT-2 | luminescence | - | 0.0059 µM
CC1(C)CC=C(c2cn(-c3nccc(C(=O)NC4CCC(N5CC6CCC(C5)O6)CC4)n3)c3ccc(F)c([C@H](OC(C)(C)C)C(=O)O)c23)CC1 | NL4-3 | MT-4 | luminescence | V126I | 0.0054 µM
Cc1cc(CNC(=O)C[C@@]23CC[C@]4(C)[C@H](CC[C@@H]5[C@@]6(C)CC[C@H](OC(=O)[C@H]7C[C@@H](C(=O)O)C7(C)C)C(C)(C)[C@@H]6CC[C@]54C)C2=C(C(C)C)C(=O)C3)n[nH]1 | 92HT599 | MT-2 | p24 / ELISA | - | <1 µM
Cc1ncc(-c2ccc(OCCC3(O)CCC3)cn2)c(N2CCC(C)(C)CC2)c1[C@H](OC(C)(C)C)C(=O)O | NL4-3 | MT-2 | luminescence | - | 0.0223 µM
CCN1CCN(CC(=O)NC[C@H](O)[C@@]23CC[C@]4(C)[C@H](CC[C@@H]5[C@@]6(C)CC[C@H](OC(=O)[C@H]7C[C@@H](C(=O)O)C7(C)C)C(C)(C)[C@@H]6CC[C@]54C)C2=C(C(C)C)C(=O)C3)CC1 | 92HT599 | MT-2 | p24 / ELISA | - | <1 µM
Nc1nc(NC2CC2)c2ncn([C@H]3C=C[C@@H](CO)C3)c2n1 | Clinical isolate | MT-2 | recombinant virus assay | D67N/T69N/K70R/A98G/M184V/G190S/T215F/K219Q | 0.4488 µM
Cc1cc(Cl)cc(C(=O)c2cc(Cl)ccc2OCC(=O)Nc2ccc(S(N)(=O)=O)cc2C)c1 | HXB2 | HeLa + HELA CD4+ | β-galactosidase | RT-V106A Y181C | 0.101–1 µM
N#CC1=CC2Nc3ccccc3C2N(c2ccc([N+](=O)[O-])cc2)C1=O | 1617-1 | HeLa | GFP / fluorescence | - | 0.87 µM
Cc1cc(F)ccc1OCCOc1ccc(-c2cnc(C)c([C@H](OC(C)(C)C)C(=O)O)c2N2CCC(C)(C)CC2)cn1 | NL4-3 | MT-2 | luminescence | - | 0.0056 µM
CC(C)C1=C2[C@H]3CC[C@@H]4[C@@]5(C)CC[C@H](OC(=O)[C@H]6C[C@@H](C(=O)O)C6(C)C)C(C)(C)[C@@H]5CC[C@@]4(C)[C@]3(C)CC[C@@]2(CCNC(=O)c2cccc(Cl)c2)CC1=O | 92HT599 | MT-2 | p24 / ELISA | - | <1 µM
Cc1cc(S(N)(=O)=O)ccc1NC(=O)COc1ccc(Cl)cc1C(=O)c1cc(F)cc(F)c1 | HXB2 | HeLa + HELA CD4+ | β-galactosidase | RT-K103N | <0.01 µM
C#C[C@@]1(CO)C=C[C@H](n2cc(C)c(=O)[nH]c2=O)O1 | Clinical isolate | MT-2 | recombinant virus assay | M41L/D67N/K70R/A98G/K101E/M184V/G190A/L210W/T215Y/K219E | >46.2 µM
Cc1ncc(-c2cnc(NC3CCc4cc(F)ccc4C3)c(F)c2)c(N2CCC(C)(C)CC2)c1[C@H](OC(C)(C)C)C(=O)O | NL4-3 | MT-2 | luminescence | - | 0.0071 µM
Cc1cc(C#N)cc(C(=O)c2cc(Cl)ccc2OCC(=O)Nc2ccc(OCCCN3CC=CC3)cc2C)c1 | HXB2 (RT-K103N G190A) Recombinant | HeLa + HELA CD4+ | β-galactosidase | RT-K103N G190A | <0.01 µM
CC(C)C1=C2[C@H]3CC[C@@H]4[C@@]5(C)CC[C@H](OC(=O)[C@H]6C[C@@H](C(=O)O)C6(C)C)C(C)(C)[C@@H]5CC[C@@]4(C)[C@]3(C)CC[C@@]2(CCNCC(C)(C)NC(=O)c2ccncc2)CC1=O | 92HT599 | MT-2 | p24 / ELISA | - | <1 µM
Cc1ncc(-c2ccc(NCCOc3ccc(Cl)cc3Cl)nc2)c(N2CCC(C)(C)CC2)c1[C@H](OC(C)(C)C)C(=O)O | NL4-3 | MT-2 | luminescence | - | 0.0063 µM
O=C(COc1ccc(Cl)cc1C(=O)c1ccco1)Nc1ccc2cn[nH]c2c1 | HXB2 | HeLa + HELA CD4+ | β-galactosidase | RT-K103N | <0.01 µM
CC1CC(C)CN(S(=O)(=O)c2ccccc2[N+](=O)[O-])C1 | A-92UG029 | HeLa | GFP / fluorescence | - | 1 µM
Cc1cc(C)cc(C(=O)c2cc(Cl)ccc2OCC(=O)Nc2ccc(S(N)(=O)=O)cc2C)c1 | HXB2 | HeLa + HELA CD4+ | β-galactosidase | RT-V108I Y181C | <0.01 µM
Cc1nn(C)cc1CCOc1ccc(-c2cnc(C)c([C@H](OC(C)(C)C)C(=O)O)c2N2CCC(C)(C)CC2)nc1 | NL4-3 | MT-2 | luminescence | - | 0.0062 µM

The first 2 rows once more:

SMILES | strain or isolate | cells | read by | changes | result
O=C(COc1ccc(Cl)cc1C(=O)c1nccs1)Nc1ccc2[nH]ncc2c1 | IIIB | MT-4 | cytopathic effect / propidium iodide | - | 0.011–0.1 µM
Cc1ncc(-c2ccc(N(C)CCOc3ccc(F)cc3F)cn2)c(N2CCC(C)(C)CC2)c1[C@H](OC(C)(C)C)C(=O)O | NL4-3 | MT-2 | luminescence | - | 0.0013 µM